Measured values from article PMC3161980, “Modulation of NKp30- and NKp46-Mediated Natural Killer Cell Responses by Poxviral Hemagglutinin” (PLoS Pathogens, 2011).

B1: NKp30-Fc: long (canonical) ectodomain of NKp30 fused to the Fc portion of human IgG1 (Fc fusion)
chain: LWVSQPPEIRTLEGSSAFLPCSFNASQGRLAIGSVTWFRDEVVPGKEVRNGTPEFRGRLAPLASSRFLHDHQAELHIRDVRGHDASIYVCRVEVLGLGVGTGNGTRLVVEKEHPQLG
notes: also called NKp30(long)-Fc; NKp30-hIgG1-Fc
B2: NKp46-Fc: ectodomain of NKp46 fused to the Fc portion of human IgG1 (Fc fusion)
chain: QQQTLPKPFIWAEPHFMVPKEKQVTICCQGNYGAVEYQLHFEGSLFAVDRPKPPERINKVQFYIPDMNSRMAGQYSCIYRVGELWSEPSNLLDLVVTEMYDTPTLSVHPGPEVISGEKVTFYCRLDTATSMFLLLKEGRSSHVQRGYGKVQAEFPLGPVTTAHRGTYRCFGSYNNHAWSFPSEPVKLLVTGDIENTSLAPEDPTFPADTWGTYLLTTETGLQKDHALWDHTAQNLLR
notes: also called NKp46-hIgG1-Fc; soluble NKp46

Biological target: soluble recombinant HA(VV)-V5-His6 (ectodomain of HA from VV strain WR) (vaccinia virus strain Western Reserve …, UniProt Q01218 17-277)
Assay: ELISA

Row | Binder | binding result
1 | B1 | binds
2 | B2 | binds
